From ChEMBL document CHEMBL4321818, “Anti-biofilm Agents against Pseudomonas aeruginosa: A Structure-Activity Relationship Study of C-Glycosidic LecB Inhibitors” (J Med Chem, 2019) come the findings set out here.

Structures are written as SMILES.

The test concerns the target Fucose-binding lectin PA-IIL (Pseudomonas aeruginosa (strain ATCC 15692 / DSM 22644 / CIP 104116 / JCM14847 / LMG 12228 / 1C / PRS 101 / PAO1), UniProt Q9HYN5). Description: Inhibition of N-(fluorescein-5-yl)-N'-(alpha-L-fucopyranosyl ethylen)thiocarbamide binding to Pseudomonas aeruginosa PA14 LecB incubated for 22 to 24 hrs by fluorescence polarization assay. A general note: In fluorescence polarisation assays a small probe gives low polarisation when free and higher when bound to something large.

Usually IC50 stands for the concentration that gives 50% inhibition. Read a high IC50 as lower potency. As for `C[C@@H]1O[C@H](CNC(=O)c2cc3ccccc3[nH]2)[C@@H](O)[C@H](O)[C@@H]1O`, the IC50 came out at 3570 nM.

As for `C[C@@H]1O[C@H](CNS(=O)(=O)c2ccc(C#CC(C)(C)O)s2)[C@@H](O)[C@H](O)[C@@H]1O`, the IC50 came to 310 nM.

`C[C@@H]1O[C@H](CNS(=O)(=O)c2ccc(C#Cc3ccccc3)s2)[C@@H](O)[C@H](O)[C@@H]1O` returned a half-maximal inhibitory concentration (IC50) of 140 nM.
